{"source": "PubChem BioAssay AID624099 | ICCB-Longwood | 2012", "test": "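Human genes that papillomavirus E2 requires to repress the HPV18 LCR promoter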 (primary screen)", "cell system": "human C33A cervical carcinoma cells (HPV-negative) stably expressing BPV1 E2 and an HPV18 LCR luciferase reporter", "knock-down reagent": "siRNA pool against human genes, 40 nM", "timing": "72 h", "detection": "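Per-well luciferase luminescence, z-scored on each plate against the plate mean and SD with control wells left out, then averaged across three replicate plates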", "reading the numbers": "mean z-score and z-score: higher = stronger reporter signal, weaker E2 silencing", "rule for the call": "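Mean z ≥ 2 together with z ≥ 2 in two or more of the three replicates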", "note": "Here is an unselected part of about 21,000 reagents. 497 of them (2.4%) were called active. 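Higher z means weaker E2 silencing; only reporter increases were scored, and knock-downs that hurt cell survival may mask genuine repressor factors.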 A number with no mark means an inactive call."}
{"gene knocked down": "LOC388508 (retired record) (GeneID 388508)", "mean z-score": -0.38, "z-score, replicate A": -0.27, "z-score, replicate B": -0.69, "z-score, replicate C": -0.19}
{"gene knocked down": "LINC00608 (GeneID 151300)", "mean z-score": -0.73, "z-score, replicate A": -0.83, "z-score, replicate B": -0.71, "z-score, replicate C": -0.66}
{"gene knocked down": "ALDH3A2 (GeneID 224)", "mean z-score": -0.54, "z-score, replicate A": -0.6, "z-score, replicate B": -0.47, "z-score, replicate C": -0.55}
{"gene knocked down": "LOC388171 (retired record) (GeneID 388171)", "mean z-score": "3.53 (active)", "z-score, replicate A": 3.86, "z-score, replicate B": 3.48, "z-score, replicate C": 3.26}

Next part (2 carried over from the part before).
{"gene knocked down": "ALDH3A2 (GeneID 224)", "mean z-score": -0.54, "z-score, replicate A": -0.6, "z-score, replicate B": -0.47, "z-score, replicate C": -0.55}
{"gene knocked down": "LOC388171 (retired record) (GeneID 388171)", "mean z-score": "3.53 (active)", "z-score, replicate A": 3.86, "z-score, replicate B": 3.48, "z-score, replicate C": 3.26}
{"gene knocked down": "FOXP4 (GeneID 116113)", "mean z-score": 1.01, "z-score, replicate A": 0.65, "z-score, replicate B": 1.1, "z-score, replicate C": 1.27}
{"gene knocked down": "SLC25A47 (GeneID 283600)", "mean z-score": -1.35, "z-score, replicate A": -1.41, "z-score, replicate B": -1.41, "z-score, replicate C": -1.24}
{"gene knocked down": "ZNF404 (GeneID 342908)", "mean z-score": 1.17, "z-score, replicate A": 1.48, "z-score, replicate B": 1.1, "z-score, replicate C": 0.93}
{"gene knocked down": "ZNF572 (GeneID 137209)", "mean z-score": -0.03, "z-score, replicate A": 0.04, "z-score, replicate B": -0.38, "z-score, replicate C": 0.26}
{"gene knocked down": "MMP14 (GeneID 4323)", "mean z-score": 1.5, "z-score, replicate A": 0.98, "z-score, replicate B": 2.26, "z-score, replicate C": 1.26}
{"gene knocked down": "RPL34P34 (GeneID 342994)", "mean z-score": -3.84, "z-score, replicate A": -3.32, "z-score, replicate B": -4.05, "z-score, replicate C": -4.14}
{"gene knocked down": "MKLN1 (GeneID 4289)", "mean z-score": 0.05, "z-score, replicate A": 0.08, "z-score, replicate B": -0.04, "z-score, replicate C": 0.13}
{"gene knocked down": "IPO9 (GeneID 55705)", "mean z-score": 0.29, "z-score, replicate A": -0.03, "z-score, replicate B": 0.35, "z-score, replicate C": 0.54}
